{"source": "patent US5223411A", "about": "“Nonionic surfactants having a carbamoyl group and process for treatment of a proteins containing medium using the same” (Centre National de la Recherche Scientifique (CNRS), priority 1990, dated 1993)", "tested_on": "Spiroplasma melliferum B88 membrane", "assay": "Membrane protein extraction with detergents, spiroplasmal membrane", "settings": "concentrations below the CMC", "data": [{"smiles": "CCCCCCCNC(=O)OC[C@H]1O[C@H](OC)[C@H](O)[C@@H](O)[C@@H]1O", "note": "[HECAMEG, 6-0 (N-Heptylcarbamoyl) methyl α-D-glucopyranoside]", "values": [{"measurement": "membrane protein extraction below the CMC", "value": "inefficient"}]}]}
